This note sets out measurements from CN117659177A (SHENZHEN BAY LABORATORY; UNIV TSINGHUA, dated 2024).

First the molecules themselves.
T1: 重组猴痘病毒表面蛋白M1R-His (Monkeypox virus)
T1 chain: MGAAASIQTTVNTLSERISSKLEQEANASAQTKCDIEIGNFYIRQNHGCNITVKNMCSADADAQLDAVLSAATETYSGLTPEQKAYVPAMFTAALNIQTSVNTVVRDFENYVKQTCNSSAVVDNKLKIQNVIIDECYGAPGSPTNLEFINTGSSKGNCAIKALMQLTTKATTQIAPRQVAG

B1: 抗体A138 (antibody, V domains shown)
VH: QVQLLESGGGLVKPGGSLRLSCAASGFTFRDYYMSWIREAPGKGLEWVASISRSGTTIYYADSVKGRFTISRDNAKNSLYLQMNSLRAEDTAVYYCARDEASSNYAFDYWGQGTPVTVSS
VL: DIQLTQSPSSVSASVGDGVTITCRASQPIGTWVAWYQQKPGKAPKLLISGASSLQSGLPSRFSGRKSGTDFTLTISSLQPDDSATYFCQQTNTFPLTFGQGTRLEIKR
B2: 抗体A124 (antibody, V domains shown)
VH: EVQLLESGGGLVKPGGSLRLSCAASGFTFSSYSMNWVRQAPGKGLEWVSSISSSSSYIYYADSVKGRFTISRDNAKNSLYLQMNSLRAEDTAVYYCARDLTLADYYYYGMDVWGQGTTVTVSS
VL: NIQLTQSPSSLSASVGDRVTITCRASQTITRYLNWYQHKPGKAPNLLIYGASILQSGVPSRFSGSYSGTDFTLTISSLQPEDFATYYCQQSYSTPYTFGQGTKLEIKR
B3: 抗体A051 (antibody, V domains shown)
VH: EVQLLESGGGLVKPGGSLRLSCAASGFTFSNAWMSWVRQAPGKGLEWVSGISGSGGSTYYADSVKGRFTISRDNSKNTLYLQMNSLRAEDTAVYYCAITPLSSAYGMDVWGQGTPVTVSS
VL: DIQMTQSPSSLSASVGDRVTITCRASQGISTWLAWYQQKPGKAPKLLIYAASTLQSGVPSRFSGSRSGADFTLTINSLQPEDFATYYCQQTNNFPYTFGRGTKLDIKR
B4: 抗体A100 (antibody, V domains shown)
VH: EVQLLESGGGLVHPGGSLRLSCVASGFTFSRYSMNWVRQAPGKGLEWISYIDSRSGGISYADSVKGRFTISRDNAKNSLSLQMNSLRAEDTAVYYCVRDRFNWNNDDVFFDYWGQGTLVTVSS
VL: NIQLTQSPSSLSASVGDRVTITCRASQSISTYLNWYQQKPGKAPKLLIYAVSSLQSGVPSRFSGSQSGTDFSLTISSLQPEDFATYYCQQALSFPPTFGQGTKVEIKR
B5: 抗体A073 (antibody, V domains shown)
VH: not shown
VL: DIQMIQSPSTLSASVGDRVTITCRASQSISIWLAWYQQKPGRAPKLLINAASNLQSGVPSRFSGSGSGTEFALTISSLQPEDFATYYCQQSYAKPTFGQGTTVELKR
B6: 抗体A046 (antibody, V domains shown)
VH: EVQLLESGGGLVQPGGSLRLSCVASGFTFSDHYMDWVRQAPGKGLEWVGRIRNKANRYTPEYAASVKGRFTFSRDDSKNSLYLQMNSLKIEDTAVYYCARVGPPVAAGHYDALDIWGQGTTVTVSS
VL: AIRMTQSPSFLSASVGDRVTITCRASQGISDYLAWYQQTPGKAPKLLIYAASSLQSGVPSRFSGSGSGTDFTLTISSLQPEDFATYYCQQANSFPYTFGQGTKLEIKR
B7: 抗体A012 (antibody, V domains shown)
VH: EVQLLESGAEVKKPGESLKISCKGSGYSFTTYWIAWVRQMPGKGLEWMGIIYPGDSDTRYSPSFRGQVSISADKSINTAYLQWNSLKASDTAMYYCARPAVAGTPDAFDIWGQGTLVTVSS
VL: DIQLTQSPSSVSASVGERVTITCRASQGVGNWLAWYQHKPGKVPKLLIHSASNLQSGVPSRFSGSGFGTDFTLTISSLQPEDFATYYCQQASSFPLTFGGGTKVEIKR
B8: 抗体A129 (antibody, V domains shown)
VH: EVQLVESGGGVVQPGRSLRLSCAVSGLRLTNSGMHWVRQAPGKGLQWVAVLWSDGRNTDYEESVKGRFTISRDDSKNTLFLEMNTVGAEDTAMYYCVTDAGGSNSWEFFFDHWGQGTMVTVSS
VL: NIQLTQSPSSVSASVGDRVTITCRASQGISSWLAWYQQKPGKAPKLLIYAASSLQSGVPSRFSGSGSGTDFTLTISSLQPEDFATYYCQQANSFPFTFGPGTKVDIKR
B9: 抗体A094 (antibody, V domains shown)
VH: EVQLLESGGGLVQPGGSLRLSCAASGFTFRNYAMSWVRQAPGKGLEWVSSITSSGRYTYYADSVRGRFTISRDNANNSLYLQMSSLRAEDTAVYYCATELGDYWGQGTMVTVSS
VL: DIQMTQSPSSVSASVGDRVTITCRASQGISSWLSWYQQKPGRAPKLLISAASSLQTGVPSRFSGSGSGTHFTLTITSLQPEDFATYYCQQSDTFPITFGQGTRLEIKR

In one test the target is T1, 重组猴痘病毒表面蛋白M1R-His.
Experiment: not given
Turning to B1, the binding result is recorded as “binds”.

Another test deals with T1, 重组猴痘病毒表面蛋白M1R-His. Kind of test: ELISA, recombinant M1R coated at 2 μg/mL, IgG from 293T cells.
Consider B2, for which the binding result is “binds”.
On the same count and under the same terms, the same measure for B3: “binds”; for B4: “binds”.
Still for that read-out and setting: the same measure for B5: “binds”; for B6: “binds”; for B7: “binds”.
For the molecule B8, the binding result is on record as “binds”.
As to B9, the binding result was “binds”.
